The structures appear in SMILES notation. Values joined by “and” are separate entries in the source; they are usually repeats but may differ in a detail not shown here. Identical values can stand only once.

Data set [1] relates to L929 cells. The experiment in a line: Cytotoxicity assay (Alamar Blue, 24 h) on L929 fibroblasts. It is filed as cell-based, murine. As to conditions: for SI^A L929: CC50 L929/IC50 ex vivo amastigotes; for SI^P L929: CC50 L929/IC50 promastigotes. The procedure: (§1) HepG2 cells (human hepatocellular carcinoma), VERO cells (African green monkey kidney), and J774.G8 macrophages (murine reticulosarcoma) were maintained in DMEM medium, supplemented with 10% FBS, 1% Pen/Str at 37 °C and 5% CO2 [70, 71]. For the cultivation of L929 fibroblasts (murine fibrosarcoma), RPMI 1640 medium without phenol red, supplemented with 2 mM L-glutamine, 10% FBS, and 1% Pen/Str, was used and maintained under the same conditions of temperature and CO2 as above.
(§2) J774.G8, VERO (10^5 cells/well), HepG2, L929 (0.5 × 10^5 cells/well) cells, and MPMs (3 × 10^5 cells/well) were centrifuged, resuspended in medium, plated in 96-well microplates, and incubated for 24 h under cultivation conditions. Subsequently, they were exposed to different concentrations of the compounds, serially diluted in medium to a final volume of 100 µL/well, and incubated for 24 h at 37 °C and 5% CO2. Cell viability was then assessed using the AB, and data were acquired by spectrophotometry. […] Untreated cells were used as negative controls, and cells exposed to the reference compound (MT) were used as positive controls. The Selectivity Index (SI) was calculated using the ratio SI = CC50 (mammalian cells)/IC50 (promastigote or amastigote forms of L. amazonensis).
A general note: Resazurin is reduced to fluorescent resorufin, in cell work by metabolically active cells.

Data set [2] concerns HepG2 cells. The data set is described as follows: Cytotoxicity assay (Alamar Blue, 24 h) on HepG2 cells. It is filed as cell-based, human. As to conditions: for SI^A HepG2: CC50 HepG2/IC50 ex vivo amastigotes; for SI^P HepG2: CC50 HepG2/IC50 promastigotes. The procedure:
as §1, §2

The test system of data set [3] is VERO cells. The data set is described as follows: Cytotoxicity assay (Alamar Blue, 24 h) on VERO cells. It is filed as cell-based, African green monkey. As to conditions: for SI^A VERO: CC50 VERO/IC50 ex vivo amastigotes; for SI^P VERO: CC50 VERO/IC50 promastigotes. The procedure:
as §1, §2

In data set [4] the test system is murine peritoneal macrophages—MPMs. The data set is described as follows: Cytotoxicity assay (Alamar Blue, 24 h) on murine peritoneal macrophages. It is filed as cell-based, Swiss Webster mice. Conditions: for SI^A MPMs: CC50 MPMs/IC50 ex vivo amastigotes; for SI^P MPMs: CC50 MPMs/IC50 promastigotes. How it is done: Murine peritoneal macrophages—MPMs (primary cells)—were isolated from male Swiss Webster mice stimulated with 1 mL of 3% Brewer’s thioglycollate medium, administered intraperitoneally. After 96 h, the animals were euthanized, and the MPMs were collected by peritoneal lavage with approximately 10 mL of RPMI 1640 medium. The cell suspension was centrifuged at 382× g for 10 min, and the pellet was resuspended in medium supplemented with 5% FBS, 1% Pen/Str, and 2 mM L-glutamine. All cell cultures were maintained at 37 °C and 5% CO2 [73]. For the experiments, all cell types were cultured until confluency.
as §2

Data set [5] concerns J774.G8 cells. The data set is described as follows: Cytotoxicity assay (Alamar Blue, 24 h) on J774.G8 macrophages. As to conditions: for SI^A J744.G8: CC50 J774.G8/IC50 ex vivo amastigotes; for SI^P J744.G8: CC50 J774.G8/IC50 promastigotes. In kind it is cell-based, murine. The procedure: as §1, §2

With `CCNc1cc2[s+]c3cc(NCC)c(C)cc3nc2cc1C.F[P-](F)(F)(F)(F)F.F[P-](F)(F)(F)(F)F.F[P-](F)(F)(F)(F)F.F[P-](F)(F)(F)(F)F.N#[O+].[Ru+2].c1ccc(-c2ccccn2)nc1.c1ccc(-c2ccccn2)nc1` [NMB-B, new methylene blue B], in data set [1], the “SI^A L929” value came to 85.54 and the “SI^P L929” value was determined as 49.32. In data set [2], the “SI^A HepG2” value worked out at 10.84 and the “SI^P HepG2” value is 6.25. Besides, in data set [3], the “SI^A VERO” value turned out to be 78.47 and the “SI^P VERO” value is 45.25. Besides, in data set [4], the “SI^A MPMs” value is listed as 20.86 and the “SI^P MPMs” value is 12.03.

In the case of `CCNc1cc2[s+]c3cc(NCC)c(C)cc3nc2cc1C.F[P-](F)(F)(F)(F)F.F[P-](F)(F)(F)(F)F.F[P-](F)(F)(F)(F)F.F[P-](F)(F)(F)(F)F.N#[O+].[Ru+2].c1cnc2c(c1)ccc1cccnc12.c1cnc2c(c1)ccc1cccnc12` [NMB-P, new methylene blue P], in data set [1], the “SI^A L929” value was 326.96 and the “SI^P L929” value amounted to 52.96. In addition, in data set [2], the “SI^A HepG2” value is 76.20 and the “SI^P HepG2” value is reported as 12.34. In addition, in data set [3], the “SI^A VERO” value was determined as 521.30 and the “SI^P VERO” value is reported as 84.44. For the same compound, in data set [4], the “SI^A MPMs” value is > 150 and 155.72; the “SI^P MPMs” value is 25.22.

In the case of `CCCCCCCCCCCCCCCCOP(=O)([O-])OCC[N+](C)(C)C` [Miltefosine, miltefosine, reference compound], in data set [1], the “SI^A L929” value is given as 116.20 and the “SI^P L929” value was determined as 4.86. Moreover, in data set [2], the “SI^A HepG2” value is recorded as 186.60 and the “SI^P HepG2” value is given as 7.80. Further, in data set [3], the “SI^A VERO” value amounted to 173.25 and the “SI^P VERO” value is recorded as 7.24. In data set [5], the “SI^A J744.G8” value came to 160.41 and the “SI^P J744.G8” value is 6.71. In addition, in data set [4], the “SI^A MPMs” value is 106.11 and the “SI^P MPMs” value was 4.44.

In the case of `CN(C)c1ccc2nc3ccc(=[N+](C)C)cc-3sc2c1` [MB, methylene blue, reference compound], in data set [1], the “SI^A L929” value was 20.55 and the “SI^P L929” value is listed as 5.24. For the same compound, in data set [2], the “SI^A HepG2” value came to 6.13 and the “SI^P HepG2” value stood at 1.56. Further, in data set [3], the “SI^A VERO” value stood at 9.01 and the “SI^P VERO” value came out at 2.30. In addition, in data set [5], the “SI^A J744.G8” value was 13.18 and the “SI^P J744.G8” value is 3.36. In data set [4], the “SI^A MPMs” value was determined as 2.30 and the “SI^P MPMs” value is 0.59.

Take `CCNc1cc2[s+]c3cc(NCC)c(C)cc3nc2cc1C` [NMB, new methylene blue]: in data set [1], the “SI^A L929” value was determined as 105.35 and the “SI^P L929” value amounted to 51.71. Besides, in data set [2], the “SI^A HepG2” value is on record as 26.90 and the “SI^P HepG2” value came to 13.20. Moreover, in data set [3], the “SI^A VERO” value was 16.82 and the “SI^P VERO” value amounted to 8.25. For the same compound, in data set [5], the “SI^A J744.G8” value came out at 25.75 and the “SI^P J744.G8” value amounted to 12.64. In data set [4], the “SI^A MPMs” value was 11.76 and the “SI^P MPMs” value was found to be 5.77.

Values taken from PMC12730333 (Biology, 2025).
